Tested on: C. albicans JCM1542
Details: C. albicans JCM1542, MOPS-RPMI medium, 24 h

Substance: H2O2
- morphological change induced in C. albicans: completely distinct from those of the copper chelators
